Anti-infective test results gathered from many reports (values: NIAID ChemDB through PubChem).

Common to all: host cell toxicity; cell line: Jurkat cells; read-out: CC50

CCn is the concentration with n% toxicity to the cells. Two numbers with a dash give a range or band. Neighbouring rows are from separate reports. An empty or dashed field is not shown.

structure	read by	value
COc1cc2c(cc1OCCC(=O)Nc1cc(C(=O)Nc3cc(C(=O)NCCC(=N)N)n(C)c3)n(C)c1)N=C[C@@H]1CCCN1C2=O		76 µM
COC(=O)C1=C2Nc3ccccc3[C@@]23CCN2[C@H](O)[C@]4(CC5C[C@]67CC(=O)O[C@H]6CCC6NC[C@@]8(c9cccc(OC)c9N(C4)[C@@H]58)[C@@H]67)[C@@H]4OCC[C@]4(C1)[C@H]23	absorbance	0.5 µM
COc1cc2c(cc1OCCC(=O)Nc1cc(C(=O)NCCC(=N)N)n(C)c1)N=C[C@@H]1CCCN1C2=O		3 µM
CCCCC(=O)OC1CC(OC(C)C(C)C(O)C(C)C(O)C(C)C2OC(=O)/C=C/CC(O)CC(O)CC(O)CCC(C)C(O)C[C@@]3(O)O[C@H](CC(O)CC(OC(=O)CC(=O)O)CCCC(O)C4OC4C2C)C[C@H](O)[C@H]3O)OC(C)C1O		>100 µg/mL
COc1c(/C=C/C(=O)c2cccc([N+](=O)[O-])c2)ccc2ccccc12	MTT	3–15 µM
COc1cc(OC)c2c(=O)cc(-c3ccc(O)c(N)c3)n(C)c2c1	MTT	>100 µM
Cc1[nH]c2ccccc2c1CCNCc1ccc(/C=C/C(=O)NO)cc1	fluorescence	>5 µM
NCCCC[C@H](COC(=O)O)NC(=O)CN(CCCCN)C(=O)OC[C@@H](N)CCCN=C(N)N		>100 µM
CCC(O)[NH+]1CC[NH+](C(O)CC)CC1.[Cl][Pt-2]([Cl])([Cl])([Cl])([Cl])[Cl]	fluorescence	>10 µM
O=C(NCc1cccs1)c1nn2c(c1Cl)N[C@H](c1ccco1)C[C@@H]2C(F)(F)F	ATP	>100 µM
COc1c(/C=C/C(=O)c2ccc(-c3ccccc3)cc2)ccc2ccccc12	MTT	3–15 µM
COc1cc(OC)c2c(=O)cc(-c3ccc(OCCCN)c(NC(=O)CCCN(C)C)c3)n(C)c2c1	MTT	>100 µM
CCOC(=O)P(=O)(O)OC[C@H]1O[C@@H](n2cc(C)c(=O)[nH]c2=O)C[C@@H]1N=[N+]=[N-]		>100 µM
COc1ccc(-c2cc(=S)ss2)cc1		>100 µM
C/C(=N\NC(=O)c1ccc([N+](=O)[O-])cc1)c1cccc(/C(C)=N/NC(=O)c2ccc([N+](=O)[O-])cc2)n1	MTT	>100 µM
C[C@H]1[C@H](O)[C@@H](C)/C=C/C=C/C=C/C=C/C=C/C=C/C=C/[C@H](O[C@@H]2O[C@H](C)[C@@H](O)[C@H](N)[C@@H]2O)C[C@@H]2O[C@](O)(C[C@@H](O)C[C@@H](O)CC[C@H](O)[C@@H](O)C[C@@H](O)CC(=O)O[C@H]1C)C[C@H](O)[C@H]2C(=O)O	MTT	>10 µM
COc1cc(OC)c2c(=O)cc(-c3ccc(OCCCN)c(N)c3)n(C)c2c1	MTT	>100 µM
COc1c(/C=C/C(=O)c2ccc(Cl)cc2)ccc2ccccc12	MTT	3–15 µM
C[C@H]1[C@@H](OC(=O)CCC(=O)O)O[C@@H]2O[C@@]3(C)CC[C@H]4[C@H](C)CC[C@@H]1[C@@]24OO3		>0.6 µM
CNc1cc2c(=O)c(C(=O)O)cn(C)c2cc1N1CCN(c2ccccn2)CC1	MTT	58.36 µM
O=c1cc(-c2cccc3c2Sc2ccccc2S3)oc(N2CCOCC2)c1	MTS	>10 µM
Cn1cc(NC(=O)c2cc(NC(=O)c3cc(NC=O)cn3C)cn2C)cc1C(=O)NCCC(=N)N		20 µM
NC(=O)n1c(O)c(C(=O)c2cccs2)c2cc(Cl)ccc21	trypan blue	73 µM

A second listing of 3 rows from above:

structure,read by,value
COc1cc(OC)c2c(=O)cc(-c3ccc(OCCCN)c(N)c3)n(C)c2c1,MTT,>100 µM
COc1cc2c(cc1OCCC(=O)Nc1cc(C(=O)Nc3cc(C(=O)NCCC(=N)N)n(C)c3)n(C)c1)N=C[C@@H]1CCCN1C2=O,,76 µM
NC(=O)n1c(O)c(C(=O)c2cccs2)c2cc(Cl)ccc21,trypan blue,73 µM